Measured values from several laboratories, pooled; numbers as filed in NIAID ChemDB.

All rows: tests in culture; species: HIV-1; read-out: EC50

Lines come from different laboratories, so protocols vary. Blank or dashed fields: not listed here. ECn is the concentration giving n% inhibition of infection, replication or growth.

SMILES	changes	cells	strain or isolate	read by	conditions	result
Nc1nc(=O)n([C@H]2CC[C@H](CO)O2)cc1F	-	MT-2	IIIB	cytopathic effect / MTT	-	0.3 µM
COc1ccccc1-c1noc(=O)n1-c1cccc(C(F)(F)F)c1	-	MDM	ADA R5	RT activity	-	0.05 µM
Nc1ccn([C@H]2CC[C@H](CO)S2)c(=O)n1	-	MT-2	IIIB	cytopathic effect / MTT	-	>100 µM
Cc1ccc(C(=O)O[C@H]2C[C@H](n3cc(-c4cccs4)c(N)nc3=O)O[C@@H]2CO)cc1	-	H9	IIIB	RT activity	-	>10 µg/mL
Nc1nc(=O)n(C=C=CCO)cc1F	-	PHA-PBM + PBM	-	cytopathic effect	-	3.8 µM
C[C@H](CNC(=S)Nc1ccc(Br)cn1)C1CCCCC1	-	PBMC	IIIB	p24	-	>1 µM
Cc1cn([C@H]2C[C@H](N=[N+]=[N-])[C@@H](CO)O2)c(=O)[nH]c1=O	-	C8166	IIIB	-	-	0.003 µg/mL
C[C@@H]1O[C@@H](Oc2c(-c3cc(O)c(O)c(O)c3)oc3cc(O)cc(O)c3c2=O)[C@H](O)[C@H](O)[C@H]1O	-	C8166	IIIB	ELISA	-	100 µg/mL
C[C@H](CNC(=S)Nc1ccccn1)C1CCCCC1	-	PBMC	IIIB	p24	-	>1 µM
Cc1ccsc1-c1cn([C@@H]2C[C@H](O)[C@@H](CO)O2)c(=O)[nH]c1=O	-	H9	IIIB	RT activity	-	>10 µg/mL
CO[C@H]1O[C@@H](n2ccc(=O)[nH]c2=O)C[C@@H]1N=[N+]=[N-]	-	MT-2	IIIB	cytopathic effect / MTT	-	0.028 µM
Nc1nc(=O)n([C@H]2C[C@H](O)[C@@H](CO)O2)cc1-c1ccco1	-	H9	IIIB	RT activity	-	>10 µg/mL
O=c1cc(-c2ccccc2)oc2cc(O)cc(O)c12	-	C8166	IIIB	ELISA	-	20 µg/mL
Nc1ccn([C@H]2CC[C@@H](COC(=O)C(=O)N3CCCC3C(=O)N[C@H](Cc3ccccc3)C(=O)OCc3ccccc3)O2)c(=O)n1	-	MT-4	IIIB	antigen	-	1.3 µM
C[C@@H](CNC(=S)Nc1ccccn1)c1ccccc1	-	PBMC	IIIB	p24	-	0.028 µM
C[C@H](CC(=O)CC(C)(C)O)[C@H]1CC[C@@]2(C)C3C(=O)[C@@H]4O[C@]45C(CCC(=O)C5(C)C)[C@]3(C=O)CC[C@]12C	-	C8166	IIIB	-	-	13.7 µg/mL
Oc1cc(O)c2c(c1)O[C@H](c1ccc(O)c(O)c1)[C@H](O)C2	-	C8166	IIIB	ELISA	-	2 µg/mL
CC(C)n1nc(-c2ccc3oc(N)nc3c2)c2c(N)ncnc21	-	PBMC	93UG082	p24 / ELISA	-	0.00289 µM
Cc1ccc(NC(=S)NC[C@H](C)c2ccccc2)nc1	-	PBMC	IIIB	p24	-	0.003 µM
O=C(c1ccccc1)c1cnc(Cc2ccc(Nc3c(Cl)cccc3Cl)cc2)[nH]1	gp120 F145L N269E Q278H I288V N293D FNSTW364-368 deletion	MT-4	NL4-3	p24	-	>2 µg/mL
Nc1nc(=O)n([C@@H]2C[C@H](O)[C@@H](CO)O2)cc1-c1cccs1	-	H9	IIIB	RT activity	-	>10 µg/mL
C[C@@H](NC(=S)Nc1ccc(Cl)cn1)c1cccc2ccccc12	-	PBMC	IIIB	p24	-	0.001 µM
O=S(=O)(O)c1cc(O)c2c(NS(=O)(=O)c3ccc(-c4ccc(S(=O)(=O)Nc5cc(S(=O)(=O)O)cc6cc(S(=O)(=O)O)cc(O)c56)cc4)cc3)cc(S(=O)(=O)O)cc2c1	-	MOLT-4	IIIB	syncytia	-	35 µM
Cn1cccc1-c1cn([C@H]2C[C@H](O)[C@@H](CO)O2)c(=O)nc1N	-	H9	IIIB	RT activity	-	>10 µg/mL
CC(C)=CC(=O)C[C@@H](C)[C@H]1CC[C@@]2(C)C3[C@@H](O)C=C4C(CC[C@H](O)C4(C)C)[C@]3(C=O)CC[C@]12C	-	C8166	IIIB	-	-	12.5 µg/mL
Nc1ccn([C@H]2CC[C@@H](CO)O2)c(=O)n1	-	MT-4	IIIB	antigen	-	1.6 µM
CC(C)(C)NC(=O)[C@@H]1C[C@@H]2CCCC[C@@H]2CN1C[C@@H](O)[C@H](Cc1ccccc1)NC(=O)[C@H](CC(N)=O)NC(=O)c1ccc2ccccc2n1	-	MT-2	IIIB	cytopathic effect / MTT	5 d	0.003 µM
O=C(OC[C@@H]1CC[C@H](n2ccc(=O)[nH]c2=O)O1)C(=O)N1CCCC1C(=O)N[C@H](Cc1ccccc1)C(=O)OCc1ccccc1	-	MT-4	IIIB	antigen	-	>160 µM
Cc1ccnc2c1NC(=O)c1cccnc1N2C1CC1	RT-L74V A98G	MT-4	-	-	-	<3 µM
Cc1cn([C@H]2C[C@H](N=[N+]=[N-])[C@@H](CO)O2)c(=O)[nH]c1=O	-	C8166	IIIB	-	-	0.016 µM
Cc1ccc(C(=O)OC[C@H]2O[C@@H](n3cc(-c4sccc4C)c(=O)[nH]c3=O)C[C@@H]2OC(=O)c2ccc(C)cc2)cc1	-	H9	IIIB	RT activity	-	<10 µg/mL
CO[C@H]1O[C@@H](n2ccc(=O)[nH]c2=O)C[C@@H]1N=[N+]=[N-]	-	MT-4	IIIB	antigen	-	>160 µM
C[C@H](C/C=C/C(C)(C)O)[C@H]1CC[C@@]2(C)C3C(=O)C=C4C(CCC(=O)C4(C)C)[C@]3(C=O)CC[C@]12C	-	C8166	IIIB	-	-	3.7 µg/mL
CSC[C@H](NC(=O)COc1cccc2cnccc12)C(=O)N[C@@H](Cc1ccccc1)[C@H](O)C(=O)N1CSC(C)(C)[C@H]1C(=O)NC(C)(C)C	-	ATH8	MN	cytopathic effect	-	0.03 µM
Cc1csc(NC(=S)N[C@H](C)c2cccc3ccccc23)n1	RT-Y181C K103N	PBMC	NNRTI-resistant (RT Y181C K103N) A17V	p24	-	0.114 µM
NC[C@H](Cl)[C@@H](O)c1csc(N)n1	-	PBMC	BaL	RT activity	-	100 µM
CC(C)=CC(=O)C[C@@H](C)[C@H]1CC[C@@]2(C)C3C(=O)C=C4C(CCC(=O)C4(C)C)[C@]3(C=O)CC[C@]12C	-	C8166	IIIB	-	-	10.1 µg/mL
CC(C)CC(NC(=O)C(Cc1ccccc1)NC(=O)C(N)CO)C(=O)NC(C(=O)O)C(C)O	-	MT-4	IIIB	antigen	-	100 µM
C[C@@H](NC(=S)Nc1ccc(Br)cn1)c1cccc2ccccc12	-	PBMC	IIIB	p24	-	0.0015 µM
COC(=O)CCC(C)[C@H]1CCC2C3CC[C@@H]4C[C@H](OC(=O)c5ccccc5)CC[C@]4(C)C3=C(NC(=O)C(C)(C)C)C(=O)[C@@]21C	-	C8166	IIIB	-	-	200 µM
CCOC(=O)Cc1csc(NC(=S)NC(CC)c2ccccc2)n1	-	PBMC	IIIB	p24	-	0.05 µM
O=C(O)CCC(=O)O	-	MT-4	IIIB	cytopathic effect / MTT	-	>25 µM
O=c1c(O[C@@H]2O[C@H](CO)[C@@H](O)[C@H](O)[C@H]2O)c(-c2ccc(O)cc2)oc2cc(O)cc(O)c12	-	C8166	IIIB	ELISA	-	10 µg/mL
Cc1csc(NC(=S)N[C@H](C)c2ccccc2)n1	RT-Y181C	PBMC	NNRTI-resistant (RT Y181C) A17	p24	-	0.164 µM
Nc1ccn([C@H]2CC[C@@H](CO)O2)c(=O)n1	-	CEM + CEM-SS	RF	cytopathic effect / XTT	-	0.018 µM
O=C(CCCCCCCCCCC(=O)Nc1cc(S(=O)(=O)O)cc2cc(S(=O)(=O)O)cc(O)c12)Nc1cc(S(=O)(=O)O)cc2cc(S(=O)(=O)O)cc(O)c12	-	MOLT-4	IIIB	syncytia	-	47 µM

Again, the opening 6 rows:

SMILES	changes	cells	strain or isolate	read by	conditions	result
Nc1nc(=O)n([C@H]2CC[C@H](CO)O2)cc1F	-	MT-2	IIIB	cytopathic effect / MTT	-	0.3 µM
COc1ccccc1-c1noc(=O)n1-c1cccc(C(F)(F)F)c1	-	MDM	ADA R5	RT activity	-	0.05 µM
Nc1ccn([C@H]2CC[C@H](CO)S2)c(=O)n1	-	MT-2	IIIB	cytopathic effect / MTT	-	>100 µM
Cc1ccc(C(=O)O[C@H]2C[C@H](n3cc(-c4cccs4)c(N)nc3=O)O[C@@H]2CO)cc1	-	H9	IIIB	RT activity	-	>10 µg/mL
Nc1nc(=O)n(C=C=CCO)cc1F	-	PHA-PBM + PBM	-	cytopathic effect	-	3.8 µM
C[C@H](CNC(=S)Nc1ccc(Br)cn1)C1CCCCC1	-	PBMC	IIIB	p24	-	>1 µM